Legend:
Experiment in all cases: SPR; average of two replicate measures ± one standard deviation
[1] = target: BG505 F14 SOSIP (HIV-1 (clade A BG505))
[2] = target: BG505 Vt8 SOSIP (HIV-1 (clade A BG505))
[3] = target: BG505 SOSIP (HIV-1 (clade A BG505))
[4] = target: BG505 F14/Vt8 SOSIP (HIV-1 (clade A BG505))

soluble CD4 (sCD4) (from UniProt P01730 26-390) (receptor)
koff [1]: 0.00113 s⁻¹
kon [1]: 17200 M⁻¹ s⁻¹
koff [2]: 0.000781 s⁻¹
kon [2]: 9440 M⁻¹ s⁻¹
koff [3]: 0.00061 s⁻¹
kon [3]: 11200 M⁻¹ s⁻¹
koff [4]: 0.000452 s⁻¹
kon [4]: 29200 M⁻¹ s⁻¹
